This note sets out measurements from article PMC6028965, “Mechanism of vaccinia viral protein B14–mediated inhibition of IκB kinase β activation” (The Journal of Biological Chemistry, 2018).

In this test the target is untagged B14 protein (vaccinia virus, UniProt P24772 1-149). In words: pull-down.

B1: GST-IKKβ-KD-ULD M1 mutant (residues 179–197 substituted with GGGGSGGS) (domain or fragment)
chain: MSWSPSLTTQTCGAWEMKERLGTGGFGNVIRWHNQETGEQIAIKQCRQELSPRNRERWCLEIQIMRRLTHPNVVAARDVPEGMQNLAPNDLPLLAMEYCQGGDLRKYLNQFENCCGLREGAILTLLSDIASALRYLHENRIIHRDLKPENIVLQQGEQRLIHKIIDLGYAKELDQGSLGGGGSGGSKYTVTVDYWSFGTLAFECITGFRPFLPNWQPVQWHSKVRQKSEVDIVVSEDLNGTVKFSSSLPYPNNLNSVLAERLEKWLQLMLMWHPRQRGTDPTYGPNGCFKALDDILNLKLVHILNMVTGTIHTYPVTEDESLQSLKARIQQDTGIPEEDQELLQEAGLALIPDKPATQCISDGKLNEGHTLDM
On to B1, for which the binding result is reported as “binds”.
